Measured values from several laboratories, pooled; numbers as filed in NIAID ChemDB.

Shared fields: growth or infection tests; organism: Staphylococcus aureus; endpoint: MIC

Conditions beyond the fields shown may differ between rows.

structure,strain,result
CN(C)CCCNc1cc2c(cc1F)c(=O)c(C(=O)O)cn2C1CC1,ATCC 6538P,>100 µg/mL
CC(=S)NC[C@H]1CN(c2ccc(-c3nnc(CN)s3)c(F)c2)C(=O)O1,UC9213 (methicillin-susceptible),<0.5 µg/mL
COc1ccc(-c2ccc(C3=CC(CNC(C)=O)OC3=O)cc2)ccc1=O,UC9218,2 µg/mL
CC(=O)NC[C@H]1CN(c2ccc(C(=O)Nc3nc4ccccc4s3)c(F)c2)C(=O)O1,ATCC 29213 (linezolid-resistant),>64 µg/mL
CNC1CCN(c2cc3c(cc2F)c(=O)c(C(=O)O)cn3C2CC2)CC1,ATCC 6538P,1.56 µg/mL
CCOC(=O)NC[C@H]1CN(c2ccc3c(c2)-n2cccc2COC3)C(=O)O1,ATCC 49951 (SMITH),16 µg/mL
O=C(c1ccno1)N1CCC(Cn2c(=O)cc(Nc3ccc4c(c3)CCC4)[nH]c2=O)CC1,-,8 µg/mL
COC(=O)NC(C)c1nnc(-c2ccc(N3C[C@H](CNC(C)=S)OC3=O)cc2F)s1,UC9213 (methicillin-susceptible),2 µg/mL
COCCSc1ccc(N2C[C@H](CNC(C)=O)OC2=O)cc1F,ATCC 29213 (linezolid-resistant),>64 µg/mL
O=C(CC(F)(F)F)NC[C@H]1CN(c2ccc3c(c2)-n2cccc2COC3)C(=O)O1,ATCC 33591 (MRSA),8 µg/mL
O=C(O)NC[C@H]1CC(c2cc(F)c(N3CCOCC3)c(F)c2)=NO1,UC9213,4 µg/mL
COC(=O)NCc1nnc(-c2ccc(N3C[C@H](CNC(C)=S)OC3=O)cc2F)s1,UC9213 (methicillin-susceptible),<0.5 µg/mL
CSCC(=O)NC[C@H]1CN(c2ccc(C(=O)Nc3ccc(Cl)nc3)c(F)c2)C(=O)O1,ATCC 29213 (linezolid-resistant),>64 µg/mL
CCCC/C=C/C(=O)NC[C@H]1CN(c2ccc3c(c2)-n2cccc2COC3)C(=O)O1,ATCC 49951 (SMITH),>32 µg/mL
CC(=S)NC[C@H]1CN(c2ccc(-c3nnc(CNC(=O)CO)s3)c(F)c2)C(=O)O1,UC9213 (methicillin-susceptible),1 µg/mL
NCCCCCCCCCCCCNc1cc2c(cc1F)c(=O)c(C(=O)O)cn2C1CC1,ATCC 6538P,>100 µg/mL
CNCc1nnc(-c2ccc(N3C[C@H](CNC(C)=S)OC3=O)cc2F)s1,UC9213 (methicillin-susceptible),<0.5 µg/mL
CCc1cc(Nc2cc(=O)n(CCCC(=O)N(C)Cc3ccco3)c(=O)[nH]2)ccc1C,-,8 µg/mL
COC(=O)N1CC=C(c2ccc(C3=NO[C@@H](CNC(=O)O)C3)cc2)CC1,UC9213,2 µg/mL
CC(C)(CN)CNc1cc2c(cc1F)c(=O)c(C(=O)O)cn2C1CC1,ATCC 6538P,1.56 µg/mL
CCCCC(=S)NC[C@H]1CN(c2ccc3c(c2)-n2cccc2COC3)C(=O)O1,ATCC 49951 (SMITH),16 µg/mL
CSCC(=O)NC[C@H]1CN(c2ccc(C(N)=O)c(F)c2)C(=O)O1,ATCC 29213 (linezolid-resistant),>64 µg/mL
CSCc1cccc(N2CCN(c3cc4nc5c(cc4cc3F)c(=O)c(C(=O)O)cn5C)CC2)c1,IP8203 (quinolone-sensitive),4 µg/mL
CC[C@H]1OC(=O)[C@H](C)C(=O)[C@H](C)[C@@H](O[C@@H]2O[C@H](C)C[C@H](N(C)C)[C@H]2O)[C@@]2(C)C[C@@H](C)C(=NC(C)=O)[C@H](C)C(OC/C=C/CO2)[C@]1(C)O,27660 (erythromycin-resistant),1 µg/mL
CC(=O)NC[C@H]1CN(c2ccc(SCCN3CCOCC3)c(F)c2)C(=O)O1,ATCC 29213 (linezolid-resistant),>64 µg/mL
CO/N=C1\CN(c2nc3c(cc2F)c(=O)c(C(=O)O)cn3C2CC2)CC1CN,KU2243,32 µg/mL
Cn1cc(C(=O)O)c(=O)c2cc3cc(F)c(N4CCN(c5ccc(F)cc5)CC4)cc3nc21,LF11C128 (quinolone-resistant),0.5 µg/mL
CN1CCN(C)c2cc3c(cc21)c(=O)c(C(=O)O)cn3C1CC1,ATCC 5278 (methicillin-resistant),>100 µg/mL
CO/N=C/c1ccc(/C=C/C(=O)NC[C@H]2CN(c3ccc(C(N)=O)c(F)c3)C(=O)O2)cc1,ATCC 29213 (linezolid-resistant),>64 µg/mL
CC(=O)NC[C@H]1CN(c2ccc3c(c2)OCc2nccn2-3)C(=O)O1,25470,0.5 µg/mL
COC(=O)CCn1c(C)nc([N+](=O)[O-])c1Sc1ccc(N2C[C@H](CNC(C)=O)OC2=O)cc1F,ATCC 29213 (linezolid-resistant),>64 µg/mL
CC(=O)NC[C@H]1CN(c2ccc(C(=O)Nc3nccs3)c(F)c2)C(=O)O1,ATCC 29213 (linezolid-resistant),>64 µg/mL
CCNCCNc1cc2c(cc1F)c(=O)c(C(=O)O)cn2C1CC1,ATCC 5278 (methicillin-resistant),>100 µg/mL
CC(=O)NC[C@H]1CN(c2ccc(C(=O)N(C)C)c(F)c2)C(=O)O1,ATCC 29213 (linezolid-resistant),>64 µg/mL
O=C(O)NC[C@H]1CC(c2ccc(-n3cccc3)c(F)c2)=NO1,UC9218,2 µg/mL
O=C(NC[C@H]1CN(c2ccc3c(c2)-n2cccc2COC3)C(=O)O1)OCc1ccccc1,ATCC 49951 (SMITH),>32 µg/mL

A second listing of 5 rows from above:

structure	strain	result
COC(=O)N1CC=C(c2ccc(C3=NO[C@@H](CNC(=O)O)C3)cc2)CC1	UC9213	2 µg/mL
CN(C)CCCNc1cc2c(cc1F)c(=O)c(C(=O)O)cn2C1CC1	ATCC 6538P	>100 µg/mL
CCOC(=O)NC[C@H]1CN(c2ccc3c(c2)-n2cccc2COC3)C(=O)O1	ATCC 49951 (SMITH)	16 µg/mL
CSCC(=O)NC[C@H]1CN(c2ccc(C(=O)Nc3ccc(Cl)nc3)c(F)c2)C(=O)O1	ATCC 29213 (linezolid-resistant)	>64 µg/mL
O=C(O)NC[C@H]1CC(c2ccc(-n3cccc3)c(F)c2)=NO1	UC9218	2 µg/mL

Blank or dashed fields: not listed here.